PubChem BioAssay AID1259414, Drosophila RNAi Screening Center – 2018
The deposit covers about 24,000 reagents; below is a random part of those that have a named target and a result. Of all reagents, about 1,210 (5%) were called active. 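Inactive calls also include excluded dsRNAs with several or no targets, genes unexpressed in JW18, and well A1, regardless of score.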 A number with no mark means an inactive call. The numbers tell different reagents against one gene apart. A plus sign joins genes that one reagent is predicted to hit. Reagent sequences are not shown.

Screen: 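Host factors increasing or decreasing Wolbachia levels in cultured fly cells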 (primary screen)
Cells: Drosophila JW18 cells infected with Wolbachia
Reagents: long dsRNA against Drosophila genes, 0.25 µg dsRNA per well of a 384-well plate
Time to read-out: 5 days
Challenge: cells persistently infected with Wolbachia before knock-down; no added drug
Detection: 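Automated imaging of bacterial rRNA staining divided by host cell count, reported as plate-normalised robust z-score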
Scale: Wolbachia per cell robust z: higher = more Wolbachia per host cell than the plate typical
Call rule: 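Active if absolute robust z reaches 1.5 in two or more of three replicates, leaving out multi- or no-target dsRNAs, genes unexpressed in JW18 and A1 wells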

no.	Target gene	reagent	Wolbachia per cell robust z, rep 1	Wolbachia per cell robust z, rep 2	Wolbachia per cell robust z, rep 3
1	CG13160	1	-1.01	0.672	-0.409
2	CG2794	1	0.11	0.526	-0.65
3	CG2794	2	-2.42 (active)	0.551	-1.98
4	CG1635	1	0.664	-3.02	-0.449
5	CG1635	2	0.815	1.56	1.73
6	Grip128	1	-0.0311	-0.533	0.703
7	Ak1	1	-0.5	-0.874	-0.81
8	Ak1	2	-0.0124	0.231	0.529
9	Ak1	3	1.23 (active)	-1.93	-1.84
10	alphaTub67C	1	1.84	1.09	1.8
11	alphaTub67C	2	1.07	-0.301	1.47
12	CG31008	1	0.0859	0.0265	0.469
13	CG31008	2	-0.481	-1.43	-0.972
14	CG5781	1	0.443	-0.153	1.45
15	Aatf	1	-10.4 (active)	-1.7	0.557
16	Aatf	2	-1.62 (active)	-2.36	-1.54
17	Sfp65A	1	-3.64	0.535	-0.904
18	CG31663	1	-0.303	0.465	0.287
19	CG31663	2	-1.1	0.565	0.501
20	CG31663	3	0.273	0.978	-1.18
21	CG31663	4	0.336	0.00352	-6.35
22	Ciz1	1	0.453	0.723	0.895
23	Ciz1	2	1.94 (active)	0.0965	1.74
24	CG33281	1	-7.82	-0.85	0.37
25	cg	1	-0.699	-0.903	-0.642
26	cg	2	1.33	-8.21	0.541
27	CG12490	1	-1.19	0.618	-1.64
28	lin-28	1	0.574	-3.2	-0.325
29	RpS3	1	2.41 (active)	0.574	3.28
30	CG14456	1	0.402	-0.628	0.641
31	CG14456	2	0.0875	-2.88	-0.474
32	spen	1	0.603	0.574	0.61
33	spen	2	0.174	-0.177	-2.04
34	aqrs	1	-0.472	-4.46	-1.06
35	Coop	1	0.504	0.787	0.855
36	Coop	2	-0.225	-0.686	0.353
37	Chd64	1	-2.34	0.276	-1.44
38	Chd64	2	-0.217	0.253	0.961
39	Klp59C	1	-0.601	-4.47	-3.28
40	Klp59C	2	-0.602	0.478	0.81
41	THADA	1	0.567	1.57	-0.00108
42	THADA	2	-0.222	0.155	0.362
43	CG33795	1	-0.679	-0.325	-1.19
44	CG31974	1	-1.46	-0.00528	0.338
45	rt	1	-1.03	-4.32	0.21
46	Loxl1	1	0.46	-2.77	0.541
47	nrm	1	-0.117	-0.482	0.13
48	nrm	2	-0.609	-2.05	0.404
49	nrm	3	1.07	-0.749	-0.453
50	ldd	1	-1.2	-1.45	-6.6
51	ldd	2	-0.218	0.474	0.119
52	CG12567 + CR41519 + CR42530	1	0.093	-0.255	-2.26
53	CG13385	1	0.115	-2.29	-3.67
54	ArgRS-m	1	-0.125	0.184	-0.379
55	Gld2	1	0.557	0.937	-3.26
56	Gld2	2	-1.33	-2.31	0.154
57	CG34370	1	0.575	0.278	1.14
58	CG34370	2	0.775	-1.93	0.733
59	CG34370	3	-0.882	-0.242	-1.1
60	CG34370	4	0.546	-1.13	-1.01
61	CG34370	5	0.0738	-1.01	0.0245
62	CG34370	6	-0.364	-1.42	-1.24
63	CG34253 + lncRNA:CR32194	1	0.307	0.72	-3.7
64	papi	1	-0.385	0.606	-0.493
65	CG15247	1	-1.11	0.381	-0.697
66	CG15247	2	1.23	-0.493	1.87
67	CG14853	1	-3.45	1.01	-1.53
68	CG14853	2	0.353	0.463	0.182
